The source made the active and inactive calls.
Legend:
[1] = system: Staphylococcus epidermidis; experiment: Antibacterial activity against Staphylococcus epidermidis H 6966/08 after 24 to 48 hrs by broth micro dilution method; assay type: functional, organism-based
Klebsiella pneumoniae [2] = experiment: Antibacterial activity against Klebsiella pneumoniae J 14368/08 after 24 to 48 hrs by broth micro dilution method; assay type: functional, organism-based
Mycobacterium kansasii [3] = experiment: Antimycobacterial activity against Mycobacterium kansasii 6509/96 after 21 days by micromethod; assay type: functional
Staphylococcus aureus [4] = experiment: Antibacterial activity against methicillin-resistant Staphylococcus aureus H 5996/08 after 24 to 48 hrs by broth micro dilution method; assay type: functional, organism-based
Klebsiella pneumoniae [5] = experiment: Antibacterial activity against Klebsiella pneumoniae D 11750/08 after 24 to 48 hrs by broth micro dilution method; assay type: functional, organism-based
Nakaseomyces glabratus = experiment: Antifungal activity against Candida glabrata 20/I after 24 to 48 hrs by broth micro dilution method; assay type: functional, organism-based
Mycobacterium avium [6] = experiment: Antimycobacterial activity against Mycobacterium avium My 330/88 after 21 days by micromethod; assay type: functional
[7] = system: Mycobacterium tuberculosis; experiment: Antimycobacterial activity against Mycobacterium tuberculosis My 331/88 after 14 days by micromethod; assay type: functional
Candida albicans = experiment: Antifungal activity against Candida albicans ATCC 44859 after 24 to 48 hrs by broth micro dilution method; assay type: functional, organism-based
Klebsiella pneumoniae [8] = experiment: Antibacterial activity against ESBL positive Klebsiella pneumoniae J 14368/08 after 24 to 48 hrs by broth micro dilution method; assay type: functional, organism-based
Candida tropicalis = experiment: Antifungal activity against Candida tropicalis 156 after 24 to 48 hrs by broth micro dilution method; assay type: functional, organism-based
Mycobacterium kansasii [9] = experiment: Antimycobacterial activity against Mycobacterium kansasii My 235/80 after 7 days by micromethod; assay type: functional
Escherichia coli = experiment: Antibacterial activity against Escherichia coli ATCC 8739 after 24 to 48 hrs by broth micro dilution method; assay type: functional, organism-based
Lichtheimia corymbifera = experiment: Antifungal activity against Absidia corymbifera 272 after 24 to 48 hrs by broth micro dilution method; assay type: functional, organism-based
[10] = system: Trichophyton mentagrophytes; experiment: Antifungal activity against Trichophyton mentagrophytes 445 after 72 to 120 hrs by broth micro dilution method; assay type: functional, organism-based
Enterococcus faecalis = experiment: Antibacterial activity against Enterococcus faecalis J 14365/08 after 24 to 48 hrs by broth micro dilution method; assay type: functional, organism-based
Staphylococcus aureus [11] = experiment: Antibacterial activity against Staphylococcus aureus ATCC 6538 after 24 to 48 hrs by broth micro dilution method; assay type: functional, organism-based
[12] = system: Mycobacterium tuberculosis; experiment: Antimycobacterial activity against Mycobacterium tuberculosis My 331/88 after 21 days by micromethod; assay type: functional
Pichia kudriavzevii = experiment: Antifungal activity against Candida krusei E28 after 24 to 48 hrs by broth micro dilution method; assay type: functional, organism-based
Pseudomonas aeruginosa = experiment: Antibacterial activity against Pseudomonas aeruginosa ATCC 9027 after 24 to 48 hrs by broth micro dilution method; assay type: functional, organism-based
Mycobacterium avium [13] = experiment: Antimycobacterial activity against Mycobacterium avium My 330/88 after 14 days by micromethod; assay type: functional
Mycobacterium kansasii [14] = experiment: Antimycobacterial activity against Mycobacterium kansasii My 235/80 after 14 days by micromethod; assay type: functional
Mycobacterium kansasii [15] = experiment: Antimycobacterial activity against Mycobacterium kansasii 6509/96 after 7 days by micromethod; assay type: functional
Mycobacterium kansasii [16] = experiment: Antimycobacterial activity against Mycobacterium kansasii 6509/96 after 14 days by micromethod; assay type: functional
Aspergillus fumigatus = experiment: Antifungal activity against Aspergillus fumigatus 2318 after 24 to 48 hrs by broth micro dilution method; assay type: functional, organism-based
Mycobacterium kansasii [17] = experiment: Antimycobacterial activity against Mycobacterium kansasii My 235/80 after 21 days by micromethod; assay type: functional
Trichosporon asahii = experiment: Antifungal activity against Trichosporon asahii 1188 after 24 to 48 hrs by broth micro dilution method; assay type: functional, organism-based

O=[N+]([O-])c1cc(CSc2nnn(Cc3cc([N+](=O)[O-])cc([N+](=O)[O-])c3)n2)cc([N+](=O)[O-])c1
250 µM: MIC (Mycobacterium avium [6]) | MIC (Mycobacterium avium [13])
2 µM: MIC [12] | MIC (Mycobacterium kansasii [14]) | MIC (Mycobacterium kansasii [15]) | MIC (Mycobacterium kansasii [17])
1 µM: MIC [7] | MIC (Mycobacterium kansasii [9])
8 µM: MIC (Mycobacterium kansasii [3])
inactive: Activity [1] | Activity (Klebsiella pneumoniae [2]) | Activity (Staphylococcus aureus [4]) | Activity (Klebsiella pneumoniae [5]) | Activity (Nakaseomyces glabratus) | Activity (Candida albicans) | Activity (Klebsiella pneumoniae [8]) | Activity (Candida tropicalis) | Activity (Escherichia coli) | Activity (Lichtheimia corymbifera) | Activity [10] | Activity (Enterococcus faecalis) | Activity (Staphylococcus aureus [11]) | Activity (Pichia kudriavzevii) | Activity (Pseudomonas aeruginosa) | Activity (Aspergillus fumigatus) | Activity (Trichosporon asahii)
4 µM: MIC (Mycobacterium kansasii [16])

Reference: ChEMBL document CHEMBL3621085, “Tetrazole regioisomers in the development of nitro group-containing antitubercular agents” (Medchemcomm, 2015)
